A mixed list of measured activities; the numbers were collected in NIAID ChemDB.

Shared fields: whole-cell or culture tests; agent: HIV-1; cells: C8166; measure: EC50

ECn is the concentration giving n% inhibition of infection, replication or growth. Neighbouring rows are from separate reports. An empty or dashed field is not shown. Two numbers with a dash give a range or band.

structure,strain,mutations,method,result
Cc1cn([C@@H]2O[C@H](CO[Si](C)(C)C(C)(C)C)C3(OS(=O)(=O)C=C3N)[C@H]2O[Si](C)(C)C(C)(C)C)c(=O)n(C)c1=O,IIIB,,cytopathic effect,0.045 µM
Cc1ccc(C(O)c2cc(Cl)ccc2OCC(=O)Nc2ccc(S(N)(=O)=O)cc2C)c(C)c1,,,,28.5 µM
CCN1c2ncc(CCOc3ccc(CC(=O)O)c4ccccc34)cc2C(=O)N(C)c2ccc(F)nc21,,RT-K103N Y181C,p24,<0.1 µM
CC(C)(C)OC(=O)[C@@H]1CCCN1C[C@H](O)[C@H](Cc1ccccc1)NC(=O)[C@H](CC(N)=O)NC(=O)OCc1ccccc1,RF,,p24,5 µg/mL
COc1cc(C(c2ccc(O)c(OC)c2)C(C(=O)O)C(CO)CO)ccc1O,IIIB,,MTT,3.47 µg/mL
C=C(CC(=O)O)c1ccc(OCCc2cnc3c(c2)C(=O)N(C)c2cccnc2N3CC)c2ccccc12,WT,,p24,<0.1 µM
CN=C1CN=C(c2ccc[nH]2)c2cc(Cl)ccc2N1,RF,,p24,0.7 µM
Cc1ccc(-c2c[nH]c(=S)n2NC(=S)Nc2ccc(C)cc2C)cc1,IIIB,,syncytia / visual reading,11.75 µM
O=C(O)C1=CC(=C(c2ccc(O)c(C(=O)O)c2)c2ccc(O)c(C(=O)O)c2)C=CC1=O,RF,,p24,2.5 µg/mL
Cc1ccc(-c2c[nH]c(=S)n2NC(=S)Nc2ccc(Br)cc2)cc1,IIIB,,syncytia / visual reading,3.39 µM
CCN1c2ncc(CCOc3ccc(C(=O)O)c4ccccc34)cc2C(=O)Nc2c(C)cc(Cl)nc21,WT,,p24,<0.1 µM
COc1ccc(Cc2nccc3cc(OC)c(OC)cc23)cc1OC,RF,,p24,11.5 µg/mL
CCN1c2ncc(CCOc3ccc(C(=O)O)c4ccccc34)cc2C(=O)N(C)c2ccc(Cl)nc21,,RT-K103N Y181C,p24,<0.1 µM
C=C(C)[C@@]1(O)[C@H](OC(C)=O)[C@@H]2[C@H](OC(=O)c3ccccc3)[C@@]3(C)O[C@@]4([C@@H]3OC(=O)c3ccccc3)[C@@H](OC(C)=O)[C@@H](C)C[C@H]4[C@@]2(O)[C@H](C)[C@@H]1OC(C)=O,IIIB,,cytopathic effect / syncytia,11.89 µg/mL
Cc1ccc(NC(=S)Nn2c(-c3ccc(Cl)cc3)c[nH]c2=S)c(C)c1,IIIB,,syncytia / visual reading,2.77 µM
COC(=O)[C@@]12CC(OC)C3(Cl)C(C)(C=C4C5=C[C@H](O)[C@@H]6O[C@]6(CC=C(C)C)[C@@H]5OO[C@]43C13OC(=O)c1c(O)cc(C)cc1O3)C2,,,,6.9 µM
C[C@H](CC(=O)CC(C)(C)O)[C@H]1CC[C@@]2(C)C3C(=O)C=C4C(CCC(=O)C4(C)C)[C@]3(C=O)CC[C@]12C,IIIB,,,11.4 µg/mL
COc1ccc(-c2c[nH]c(=S)n2NC(=S)Nc2ccccc2C)cc1,IIIB,,syncytia / visual reading,3.77 µM
O=C1c2ccccc2C(=O)N1CCOC(=S)N(C(=O)c1ccc(Cl)cc1)c1ccc(Cl)cc1,IIIB,,cytopathic effect / MTT,<0.02 µM
COC(=O)CCC(C)[C@H]1CCC2C3CC[C@@H]4C[C@H](OC(=O)c5ccccc5)CC[C@]4(C)C3=C(N)C(=O)[C@@]21C,IIIB,,,20 µM
CCc1c(CC2CCCCC2)nc(SCC(=O)c2ccccc2)[nH]c1=O,Clinical isolate,TC-2,ELISA,0.00874 µM
C=C(C)/C=C/C[C@@H](C)[C@H]1CC[C@@]2(C)C3[C@@H](O)C=C4C(CC[C@H](O)C4(C)C)[C@]3(C=O)CC[C@]12C,IIIB,,,11.2 µg/mL
COc1ccc(-c2c[nH]c(=S)n2NC(=S)Nc2ccc(C)cc2C)cc1,IIIB,,syncytia / visual reading,15.09 µM
O=C1c2ccccc2C(=O)N1CCOC(=S)N(C(=O)c1ccco1)c1ccc([N+](=O)[O-])cc1,IIIB,,cytopathic effect / MTT,<0.005 µM
C=C(C)[C@@]1(OC(=O)c2ccccc2)[C@H](OC(C)=O)[C@@H]2[C@H](OC(C)=O)[C@@]3(C)O[C@@]4([C@@H]3OC(C)=O)[C@@H](OC(C)=O)[C@@H](C)C[C@H]4[C@@]2(O)[C@H](C)[C@@H]1OC(C)=O,IIIB,,cytopathic effect / syncytia,9.05 µg/mL
O=C1c2ccccc2C(=O)N1CCOC(=S)N(C(=O)c1ccccc1)c1ccc(Cl)cc1,IIIB,,cytopathic effect / MTT,<0.13 µM
CCOC(=O)NC1=C2C(CC[C@@H]3C[C@H](OC(=O)c4ccccc4)CC[C@]23C)C2CC[C@H](C(C)CCC(=O)OC)[C@@]2(C)C1=O,IIIB,,,20 µM
CO[C@@H]1O[C@]23CC(=O)C4[C@@]1(CC[C@]1(C)[C@@H]([C@H](C)CC(=O)C=C(C)C)CC[C@@]41C)C2CCC(=O)C3(C)C,IIIB,,,23.7 µg/mL
CCN1c2ncc(CCOc3ccc(CCC(=O)NN)c4ccccc34)cc2C(=O)N(C)c2cccnc21,WT,,p24,<0.1 µM
C[C@H](C/C=C/C(C)(C)O)[C@H]1CC[C@@]2(C)C3C(=O)C=C4C(CCC(=O)C4(C)C)[C@]3(C=O)CC[C@]12C,IIIB,,,3.7 µg/mL
CCN1c2ncc(CCOc3ccc(C(=O)O)c4c3CCCC4)cc2C(=O)N(C)c2cccnc21,,RT-K103N Y181C,p24,<0.1 µM
CC(C)=CC(=O)C[C@@H](C)[C@H]1CC[C@@]2(C)C3C(=O)C=C4C(CCC(=O)C4(C)C)[C@]3(C=O)CC[C@]12C,IIIB,,,10.1 µg/mL
S=C(Nc1ccc(Br)cc1)Nn1c(-c2ccc(Br)cc2)c[nH]c1=S,IIIB,,syncytia / visual reading,13 µM
O=C1c2ccccc2C(=O)N1CCOC(=S)N(C(=O)c1cccs1)c1ccc(Cl)cc1,IIIB,,cytopathic effect / MTT,<0.008 µM
CCN1c2ncc(CCOc3ccc(C(=O)O)c4ccccc34)cc2C(=O)N(C)c2cccnc21,,RT-K103N Y181C,p24,<0.1 µM
C=C(C)[C@@]1(O)[C@H](OC(C)=O)[C@@H]2[C@H](OC(=O)c3ccccc3)[C@@]3(C)O[C@@]4([C@@H]3OC(C)=O)[C@@H](OC(C)=O)[C@@H](C)C[C@H]4[C@@]2(O)[C@H](C)[C@@H]1OC(=O)c1ccccc1,IIIB,,cytopathic effect / syncytia,51.04 µg/mL
C[C@@H](Cn1cnc2c(N)nc(N)nc21)OCP(=O)(O)O,IIIB,,syncytia,20 µM
CCN1c2ncc(CCOc3cccc4c3CCCN4CC(=O)O)cc2C(=O)N(C)c2cccnc21,WT,,p24,0.1–1 µM

3 of the rows above, restated:

structure,strain,mutations,method,result
Cc1cn([C@@H]2O[C@H](CO[Si](C)(C)C(C)(C)C)C3(OS(=O)(=O)C=C3N)[C@H]2O[Si](C)(C)C(C)(C)C)c(=O)n(C)c1=O,IIIB,,cytopathic effect,0.045 µM
CCN1c2ncc(CCOc3ccc(CC(=O)O)c4ccccc34)cc2C(=O)N(C)c2ccc(F)nc21,,RT-K103N Y181C,p24,<0.1 µM
O=C1c2ccccc2C(=O)N1CCOC(=S)N(C(=O)c1ccccc1)c1ccc(Cl)cc1,IIIB,,cytopathic effect / MTT,<0.13 µM